The record followed here is publication PMC3319533.

Where a protein sequence is shown, tags need not be part of it. For some assays here: For at least one entry, the source does not settle the construct or the ends of the probe. For some assays here: At least one verdict was read from the data and is not stated in words by the source.

For series [1], the target named is T1, CpxR (CpxR_KP) (Klebsiella pneumoniae NTUH-K2044) (UniProt A0ACD7TV00).
T1 sequence (looked up): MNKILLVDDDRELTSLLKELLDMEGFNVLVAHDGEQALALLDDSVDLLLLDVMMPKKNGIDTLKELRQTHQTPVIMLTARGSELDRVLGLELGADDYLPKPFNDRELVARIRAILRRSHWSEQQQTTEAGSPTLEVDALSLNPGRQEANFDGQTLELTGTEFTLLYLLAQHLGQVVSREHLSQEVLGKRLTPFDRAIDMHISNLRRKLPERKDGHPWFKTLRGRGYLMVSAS
Description: EMSA. The settings on record: CpxR 46-466 nM, poly(dI-dC); 10 mM Tris-HCl pH 8.0, 2 mM EDTA, 0.5 mM DTT, 50 mM NaCl, 10% glycerol, 1 ug poly(dI-dC); 5% native PAGE; temperature not stated; recombinant protein; residues 1-232; protein details: N-terminal His6 (pET-28c); label: 32P end label; probe letters rebuilt from the primers and the genome. (In EMSA bound probe runs differently from free probe, usually more slowly.)

Series [2] deals with T1, CpxR (CpxR_KP) (Klebsiella pneumoniae NTUH-K2044). Description: competition with a labelled probe. The settings on record: 10-fold excess unlabeled ompC promoter as specific competitor; 10 mM Tris-HCl pH 8.0, 2 mM EDTA, 0.5 mM DTT, 50 mM NaCl, 10% glycerol, 1 ug poly(dI-dC); 5% native PAGE; temperature not stated; recombinant protein; residues 1-232; protein details: N-terminal His6 (pET-28c); label: 32P end label; probe letters rebuilt from the primers and the genome.

For “GGCCTAATTGATTGATTAATAGTCGTTAGGGAATCATTAGCCGTAGCACAGATAAATTAAAGTTGTGTAAAGAAGGGTAAAAAAAACCGGATGCGAGGCATCCGGTTGAAATAGGGGTAAACAGACATTCAGAACTGAATGACGGTAATAAATAAAGTTAATGATGATAGCGACTCTTATTTTAGCCACCAATGAACATTTTGTTTTACCATTCAGTGCTATAGATATGTTGTCGTCTATCACTTTGATTATAAAAGGTTAAATATTTTTTTTGATGATTAGTGCGTATTTCCCTGACCATTTTGCGGTGAAAAAAGTTCCGCTGAATTTACAAATTGAAACATCTTGTGGGAACTTTGAAACATCTTAGAAGTTTTAGTATCATATTCTTGTTGGATTATTCTGCATTTTGCAGCACAATGAAATAGCCGACTGATTAGAAGGGTAATCAGTAAGCAGTGGCATAATAAAAGGCATATAACAAACAGAGGGTTAATAAC (double strand) [ompC promoter]”, the binding result in series [1] and in series [2] was “binds” each time.
